Experimental findings from ChEMBL document CHEMBL1800046, “Design, synthesis, and X-ray crystallographic studies of α-aryl substituted fosmidomycin analogues as inhibitors of Mycobacterium tuberculosis 1-deoxy-D-xylulose 5-phosphate reductoisomerase” (J Med Chem, 2011) are described below.

The nature of this experiment: Inhibition of Mycobacterium tuberculosis DXR-catalyzed NADPH-dependent rearrangement and reduction of DXP to form MEP measured every 5 secs for 500 secs by spectrophotometric analysis.

`O=CN(O)CCC(c1ccc(Cl)c(Cl)c1)P(=O)(O)O` (racemic) came in with an IC50 of 0.15 µM.

The term IC50 denotes the concentration needed to halve the response being measured. Low values mean inhibition by little substance, high ones a need for much substance.
